These results are taken from publication PMC10239501.

This series concerns the target T1, OmpR (unglycosylated) (Salmonella enterica) (UniProt P0AA20).
T1 sequence (looked up, limits assumed): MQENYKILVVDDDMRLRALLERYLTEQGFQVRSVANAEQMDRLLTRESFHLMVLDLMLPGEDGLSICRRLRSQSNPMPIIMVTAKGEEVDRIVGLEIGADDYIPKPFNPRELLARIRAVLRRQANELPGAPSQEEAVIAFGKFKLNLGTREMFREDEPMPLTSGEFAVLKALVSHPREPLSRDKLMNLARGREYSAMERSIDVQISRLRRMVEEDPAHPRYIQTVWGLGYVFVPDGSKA
Put plainly: EMSA. Conditions: recombinant protein, protein details: His, label: 5' Alexa-fluor (forward primer), probe letters rebuilt from the primers and the genome. In general terms: In EMSA bound probe runs differently from free probe, usually more slowly.

For at least one entry, the source does not settle the construct or the ends of the probe. Protein sequences can lack the tags named with them.

On to “TTATTACCCTCATTGGTTTTTTTATATGACACCTGCCACTGCCGTCAATAAATTCCGTCAATAAAACTTTACAGAAATATTGATGAGAGTTTGGTGTCTTTATGTGTCTGACAGGCATCTTTCCATTCAAACTAACGTTTCGCTACCGTGAAAGTGCTACAAAGATAAAGATTTGGTTTCAAAAGGAAATAATATGTAAACAAATGTTATTTTTACGGAACTTTGTGAACAACGTCAAACTTCCCCTGAGTTATCGTTTTGATTTGATCGTTTTTCTTTTATATCCATGATTTTATTGAATTTATTTGTTCGCGACACCGTTGTGCCTGAAAAAGCAGCTGACGAGCTATTTCATAAAAATAGCCATTTAGAAGTCTGGATGTCTGAAATTGTGGTGAAAAATTGTGCTATTAGAGCAGAAAAATCTAATCCGCAATAAAATTAAGGATTAATTTTTATGTGTAAATATTTTCGTGAAATATACAGTAACAAGATGTGGTAATTCAGAGGGTTGTAATTAATTTTATTTACTTATTGATAATAAAACTGACATTCAGGCGAAAAAAAAGGCCAGCATAGCTGGCCTTGAGTGTGACGTAAAAA (double strand) [ompF promoter region]”, for which the binding result is “binds”.
